From patent US6369101B1, “Therapeutic method to treat herpes virus infection” (Regents of the University of Minnesota, priority 1999, dated 2002) come the findings set out here.

Holding throughout (type): cell-based
Conditions in all cases: CC50/EC50 ratio

The subject of one series is Varicella-Zoster Virus. As to the kind of experiment: CPE inhibition in stationary cells (visual), VZV in HFF cells.
The test system of another series is Human Cytomegalovirus. As to the kind of experiment: CPE inhibition in stationary cells (visual), HCMV in HFF cells.
The test system of another series is Mouse Cytomegalovirus. As to the kind of experiment: CPE inhibition in stationary cells (visual), MCMV in MEF cells.

On to `C=C(C)[C@@H]1CC[C@]2(COP(=O)(O)O)CC[C@]3(C)[C@H](CC[C@@H]4[C@@]5(C)CC[C@H](OP(=O)(O)O)C(C)(C)[C@@H]5CC[C@]43C)[C@@H]12` [Betulin diphosphate], for which the SI with Varicella-Zoster Virus was 0.0.
Consider `C=C(C)[C@@H]1CC[C@]2(CO)CC[C@]3(C)[C@H](CC[C@@H]4[C@@]5(C)CC[C@H](O)C(C)(C)[C@@H]5CC[C@]43C)[C@@H]12` [Betulin, lup-20(29)-ene-3β, 28-diol, reference compound], for which the SI is 4.9 with Human Cytomegalovirus, under 4.0 with Mouse Cytomegalovirus and under 3.5 with Varicella-Zoster Virus.
As to `Nc1nc(O)c2ncn(COC(CO)CO)c2n1` [Ganciclovir ®, Ganciclovir, reference compound], the SI with Human Cytomegalovirus is over 1000; with Mouse Cytomegalovirus it was 111.1.
Consider `C[C@@H]1O[C@@H](O[C@H]2[C@H](O[C@H]3CC[C@@]4(C)[C@@H](CC[C@]5(C)[C@@H]4CC=C4[C@@H]6CC(C)(C)CC[C@]6(C(=O)O)CC[C@]45C)[C@]3(C)CO)OC[C@H](O)[C@@H]2O)[C@H](O)[C@H](O)[C@H]1O` [Hederine hydrate, α-hederin hydrate], for which the SI with Human Cytomegalovirus is under 2.5; with Varicella-Zoster Virus, under 2.9.
Consider `C[C@H]1[C@H](C)CC[C@]2(C(=O)O)CC[C@]3(C)C(=CC[C@@H]4[C@@]5(C)CC[C@H](O)C(C)(C)[C@@H]5CC[C@]43C)[C@H]12` [Ursolic acid], for which, in the series with Human Cytomegalovirus, the SI is 0.0.
As for `C[C@H]1[C@H](C)CC[C@]2(CO)CC[C@]3(C)C(=CC[C@@H]4[C@@]5(C)CC[C@H](O)C(C)(C)[C@@H]5CC[C@]43C)[C@H]12` [Uvaol], the SI in the series with Human Cytomegalovirus was 0.0; in the series on Varicella-Zoster Virus, under 2.4.
Regarding Betulin succinate, the SI with Human Cytomegalovirus was 24.8; with Mouse Cytomegalovirus, under 3.5; with Varicella-Zoster Virus, under 3.4.
